Results of unrelated studies side by side (data: NIAID ChemDB).

Common to all: growth or infection tests; agent: HIV-1; read-out: EC50

ECn is the concentration giving n% inhibition of infection, replication or growth.

compound,read by,mutations,conditions,strain,cells,value
CCCOc1nc(Cc2ccccc2)cc(=O)[nH]1,cytopathic effect / MTT,,,IIIB,MT-4,32 µM
Brc1cccc(C2ON=C(c3ccccc3)N2C23CC4CC(CC(C4)C2)C3)c1,cytopathic effect / XTT,,,,CEM,>200 µM
COc1ccc(N(C)C(=O)[C@H](Cc2cc(F)cc(F)c2)NC(=O)NS(=O)(=O)N2C=CC[C@@H]2C(=O)N(C)C)cc1,luciferase,,,NL4-3,MT-2,0.97 µM
CC(C)c1c(OCC2CCC2)c2cnccc2[nH]c1=O,,,,,MT-4,0.02 µM
CCNC(=O)c1cn2c(c1O)C(=O)N(Cc1ccc(F)cc1)CC2,p24,,,,MT-4,<20 µM
CC(C)C1=C2C(CC[C@]3(C)[C@@H]2CC[C@@H]2[C@@]4(C)CC[C@H](OC(=O)[C@H]5C[C@@H](C(=O)O)C5(C)C)C(C)(C)[C@@H]4CC[C@]23C)[C@H](NC(=O)C(C)(C)C(=O)N2CCOCC2)C1=O,p24 / ELISA,,,92HT599,MT-2,<0.01 µM
N#Cc1ccc(C2ON=C(c3ccccc3)N2C23CC4CC(CC(C4)C2)C3)cc1,cytopathic effect / XTT,,,,CEM,>63 µM
CCn1c(C)c(C(=O)O)c(C(=O)O)c1Cc1ccccc1,p24 / ELISA,,,IIIB,PBL,>10 µM
O=c1cc(Cc2ccccc2)[nH]c(=O)[nH]1,cytopathic effect / MTT,,,IIIB,MT-4,>200 µM
COc1ccc(N(C)C(=O)[C@H](Cc2ccccc2)NC(=O)NS(=O)(=O)n2nc(CN)c3ccccc32)cc1,luciferase,,,NL4-3,MT-2,0.18 µM
CCCc1c(OCc2ccccc2)c2cc(Cl)ccc2[nH]c1=O,,,,,MT-4,1.48 µM
CNC(=O)c1cn2c(c1O)C(=O)N(Cc1ccc(F)cc1)CC2,p24,,,,MT-4,<20 µM
Cc1ccc(C(=O)NC[C@H](O)[C@@]23CC[C@]4(C)[C@H](CC[C@@H]5[C@@]6(C)CC[C@H](OC(=O)[C@H]7C[C@@H](C(=O)O)C7(C)C)C(C)(C)[C@@H]6CC[C@]54C)C2=C(C(C)C)C(=O)C3)cn1,p24 / ELISA,,,92HT599,MT-2,<1 µM
O=c1[nH]cnc2c1ncn2[C@@H]1O[C@H](CO)[C@H]1COS(=O)(=O)O,antigen,,,,MT-4,<10 µg/mL
O=C(O)[C@@H](C1CCCCC1)N1C[C@H](CN2CCC(c3ncc(Cc4ccccc4)s3)CC2)[C@@H](c2ccccc2)C1,β-galactosidase,,,,MAGI,<0.033 µM
COc1cc(/C=C2/N=C(C)N(c3nc(C)cc(Cl)n3)C2=O)cc(OC)c1OC,RT activity,,,,,67.56 µg/mL
COc1cccc(C2ON=C(c3ccccc3)N2C23CC4CC(CC(C4)C2)C3)c1,cytopathic effect / XTT,,,,CEM,>2 µM
[N-]=[N+]=N[C@H]1[C@H](n2cnc3c(N)ncnc32)O[C@@H]1CO,antigen,,,,MT-4,<100 µg/mL
Cc1cc(Cl)nc(N2C(=O)/C(=C\c3ccc(Cl)cc3Cl)N=C2c2ccccc2)n1,RT activity,,,,,54.16 µg/mL
Nc1c(C(=O)NCc2ccc(F)cc2F)c(=O)n(O)c2ncc(CCCCCCO)cc12,luciferase,Y143C,pseudotyped,,293T,0.0012 µM
CCCCCOc1nc(Cc2ccccc2)c(C)c(=O)[nH]1,cytopathic effect / MTT,,,IIIB,MT-4,35 µM
CC(C)C1=C2C(CC[C@]3(C)[C@@H]2CC[C@@H]2[C@@]4(C)CC[C@H](OC(=O)[C@H]5C[C@@H](C(=O)O)C5(C)C)C(C)(C)[C@@H]4CC[C@]23C)[C@H](NC(=O)C(C)(C)C(=O)N2CCCCC2)C1=O,p24 / ELISA,,,92HT599,MT-2,<0.01 µM
CC(C)C1=C2[C@H]3CC[C@@H]4[C@@]5(C)CC[C@H](OC(=O)[C@H]6C[C@@H](C(=O)O)C6(C)C)C(C)(C)[C@@H]5CC[C@@]4(C)[C@]3(C)CC[C@@]2(CCN(CCN(C)C)C(=O)c2ccccc2Cl)CC1=O,p24 / ELISA,,,92HT599,MT-2,<1 µM
NC(=O)c1cccc(N=O)c1,p24,,,WEJO,PBMC,1.5 µM
CCOCn1c(C(=O)C2=CCCCC2)c(CC)c(=O)[nH]c1=O,cytopathic effect / MTT,,,RT-Y181C N119,MT-4,>100 µM
CC(C)C1=C2[C@H]3CC[C@@H]4[C@@]5(C)CC[C@H](OC(=O)[C@H]6C[C@@H](C(=O)O)C6(C)C)C(C)(C)[C@@H]5CC[C@@]4(C)[C@]3(C)CC[C@@]2(CCNCc2ccc(CN3CCC(O)CC3)cc2)CC1=O,p24 / ELISA,,,92HT599,MT-2,<1 µM
COc1cc(/C=C2/N=C(c3ccccc3)N(c3nc(C)cc(Cl)n3)C2=O)ccc1O,RT activity,,,,,42.47 µg/mL
O=C(O)[C@@H](C1CCCCC1)N1C[C@H](CN2CCC(c3csc(-c4ccccc4)n3)CC2)[C@@H](c2ccccc2)C1,β-galactosidase,,,,MAGI,<0.1 µM
Nc1ccn([C@H]2CC[C@@H](CO)O2)c(=O)n1,RT activity,,,LAI,Macrophage + Macrophages,<1 µM
CC(C)C1=C2[C@H]3CC[C@@H]4[C@@]5(C)CC[C@H](OC(=O)[C@H]6C[C@@H](C(=O)O)C6(C)C)C(C)(C)[C@@H]5CC[C@@]4(C)[C@]3(C)CC[C@@]2([C@@H](O)CN(CCN(C)C)Cc2cncnc2)CC1=O,p24 / ELISA,,,92HT599,MT-2,<1 µM
CCOC(=O)c1cc(-c2ccc(OC)cc2)n(-c2ccccc2)c1C,p24 / ELISA,,,IIIB,PBL,>10 µM
CCOC(=O)c1cn2c(c1O)C(=O)N(Cc1ccccc1)CC2,p24,,,,MT-4,<20 µM
COC(=O)c1c(C(=O)OC)c(-c2ccccc2)n(-c2ccccc2)c1C,p24 / ELISA,,,IIIB,PBL,>10 µM
CC(C)c1c(OC#CC2CC2)c2cc(Cl)ccc2[nH]c1=O,,,,,MT-4,0.02 µM
COc1ccc(/C=C2/N=C(C)N(c3nc(C)cc(Cl)n3)C2=O)cc1,RT activity,,,,,56.05 µg/mL
OCCNc1nc(-c2cccs2)cc(-c2cc3ccccc3s2)n1,RT activity,,,LAV-1,PBMC,3.1 µM
COc1nc(Cc2ccccc2)cc(=O)[nH]1,cytopathic effect / MTT,,,IIIB,MT-4,>200 µM
CN(C)CCNc1cc(NCCN(C)C)nc(-c2cc3ccccc3s2)n1,RT activity,,,LAV-1,PBMC,2 µM
CC(C)C1=C2C(CC[C@]3(C)[C@@H]2CC[C@@H]2[C@@]4(C)CC[C@H](OC(=O)[C@H]5C[C@@H](C(=O)O)C5(C)C)C(C)(C)[C@@H]4CC[C@]23C)[C@H](NC(=O)C(C)(C)C(=O)NCc2ccc(Cl)cc2)C1=O,p24 / ELISA,,,92HT599,MT-2,<0.01 µM
O=C(NC1CC1)c1cn2c(c1O)C(=O)N(Cc1ccc(F)cc1)CC2,p24,,,,MT-4,<20 µM
O=C(O)[C@@H](C1CCCCC1)N1C[C@H](CN2CCC(c3ncc(Cc4ccccc4)o3)CC2)[C@@H](c2ccccc2)C1,β-galactosidase,,,,MAGI,<0.1 µM
COCCOc1cc(Cl)ccc1C(=O)NCC[C@@]12CC[C@]3(C)[C@H](CC[C@@H]4[C@@]5(C)CC[C@H](OC(=O)[C@H]6C[C@@H](C(=O)O)C6(C)C)C(C)(C)[C@@H]5CC[C@]43C)C1=C(C(C)C)C(=O)C2,p24 / ELISA,,,92HT599,MT-2,<1 µM
CCCc1c(SC2CCCC2)c2cc(F)ccc2[nH]c1=O,,,,,MT-4,0.045 µM
CCCOP(=O)(N[C@H](C(=O)OC)C(C)C)OC[C@H]1O[C@@H](n2cc(C)c(=O)[nH]c2=O)C[C@@H]1N=[N+]=[N-],p24,,,RF,C8166,10 µM
O=c1cc(Cc2ccccc2)nc(OCC2CCCO2)[nH]1,cytopathic effect / MTT,,,IIIB,MT-4,58 µM
Nc1ncnc2c1ncn2[C@@H]1O[C@H](CO)[C@H]1N,antigen,,,,MT-4,<3 µg/mL
CN(C)CCNc1nc(-c2cccs2)cc(-c2cc3ccccc3s2)n1,RT activity,,,LAV-1,PBMC,5.8 µM
CCCOc1nc(Cc2ccccc2)c(C)c(=O)[nH]1,cytopathic effect / MTT,,,IIIB,MT-4,29 µM
CCC(C)c1c(OC2CCCC2)c2cc(Cl)ccc2[nH]c1=O,,,,,MT-4,0.01 µM
CCCCOP(=O)(NC(C(=O)OC)C(C)C)OC[C@H]1O[C@@H](n2cc(C)c(=O)[nH]c2=O)C[C@@H]1O,p24,,,RF,C8166,>100 µM
CC(C)C1=C2[C@H]3CC[C@@H]4[C@@]5(C)CC[C@H](OC(=O)[C@H]6C[C@@H](C(=O)O)C6(C)C)C(C)(C)[C@@H]5CC[C@@]4(C)[C@]3(C)CC[C@@]2(CC(=O)NC2(CNC(=O)c3ccc(Cl)cc3)CNC2)CC1=O,p24 / ELISA,,,92HT599,MT-2,<1 µM
O=[N+]([O-])c1ccc(C2ON=C(c3ccccc3)N2C23CC4CC(CC(C4)C2)C3)cc1,cytopathic effect / XTT,,,,CEM,>63 µM
CC(=O)CC(c1ccccc1)c1c(O)c2ccccc2oc1=O,p24,,,,U1,0.001–0.01 µM
CCOC(=O)c1cn2c(c1O)C(=O)N(Cc1cccc(Cl)c1)CC2,p24,,,,MT-4,<20 µM
CCOCn1c(C(=O)C=C(C)C)c(CC)c(=O)[nH]c1=O,cytopathic effect / MTT,,,RT-Y181C N119,MT-4,>100 µM
FC(F)(F)c1ccc(C2ON=C(c3ccccc3)N2C23CC4CC(CC(C4)C2)C3)cc1,cytopathic effect / XTT,,,,CEM,>2 µM
CCn1c(C)c(C(=O)OC)c(C(=O)OC)c1Cc1ccccc1,cytopathic effect / MTT,,,IIIB,CEM + CEM-SS,1.8 µM
CCCCOP(=O)(N[C@H](C(=O)OC)C(C)C)OC[C@H]1O[C@@H](n2cc(C)c(=O)[nH]c2=O)C[C@@H]1N=[N+]=[N-],p24,,,RF,C8166,3 µM
CN(C(=O)[C@H](Cc1cc(F)cc(F)c1)NC(=O)NS(=O)(=O)N(C)c1ccccc1)c1ccc2scnc2c1,luciferase,,,NL4-3,MT-2,0.06 µM
CCCCn1c(C)c(C(=O)OC)c(C(=O)OC)c1C,p24 / ELISA,,,IIIB,PBL,>10 µM

A second listing of 5 rows from above:

compound | read by | mutations | conditions | strain | cells | value
CCCCOP(=O)(NC(C(=O)OC)C(C)C)OC[C@H]1O[C@@H](n2cc(C)c(=O)[nH]c2=O)C[C@@H]1O | p24 |  |  | RF | C8166 | >100 µM
COc1cc(/C=C2/N=C(C)N(c3nc(C)cc(Cl)n3)C2=O)cc(OC)c1OC | RT activity |  |  |  |  | 67.56 µg/mL
CC(C)C1=C2C(CC[C@]3(C)[C@@H]2CC[C@@H]2[C@@]4(C)CC[C@H](OC(=O)[C@H]5C[C@@H](C(=O)O)C5(C)C)C(C)(C)[C@@H]4CC[C@]23C)[C@H](NC(=O)C(C)(C)C(=O)N2CCOCC2)C1=O | p24 / ELISA |  |  | 92HT599 | MT-2 | <0.01 µM
COc1cc(/C=C2/N=C(c3ccccc3)N(c3nc(C)cc(Cl)n3)C2=O)ccc1O | RT activity |  |  |  |  | 42.47 µg/mL
[N-]=[N+]=N[C@H]1[C@H](n2cnc3c(N)ncnc32)O[C@@H]1CO | antigen |  |  |  | MT-4 | <100 µg/mL

An empty or dashed field is not shown. Neighbouring rows are from separate reports. Two numbers with a dash give a range or band.